# Data taken from publication PMC11436758, “Computer-aided drug design to generate a unique antibiotic family” (Nature Communications, 2024).
# Protein sequences, listed by entry. Tags and fused reporters are not part of them. Residues count along the entry.
# UniProt P24224, 2-126 limits assumed: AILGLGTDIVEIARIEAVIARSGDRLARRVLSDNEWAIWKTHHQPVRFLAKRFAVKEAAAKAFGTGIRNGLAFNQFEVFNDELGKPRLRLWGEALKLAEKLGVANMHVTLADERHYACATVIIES
# Experiments:
# AcpS = AcpS (Escherichia coli, UniProt P24224); assay: AcpS enzyme activity inhibition (IC50) by DNM compounds, [3H]acetyl-CoA / apo-ACP assay; details: read-out: AcpS IC50, three individual replicates
# MRSA (ATCC 33591) = assay: MIC, CLSI broth microdilution; type: cell-based, S. aureus; details: three individual replicates
SMILES,IC50 (AcpS) [µM],MIC (MRSA (ATCC 33591)) [g/ml]
CC(C)c1cc(Cl)ccc1-c1cc(-c2nnn[nH]2)sc1[C@@H]1CCCc2ccccc21,10,2
Clc1ccc(Cc2cc(-c3nnn[nH]3)sc2-c2ccc(Cl)cc2)cc1,14,1
Cc1c(-c2nnn[nH]2)sc(-c2ccc(Cl)cc2)c1-c1ccc(Cl)cc1,14,1
